Publication PMC2763345 (PLoS Pathogens, 2009)

Test system: M. tuberculosis clinical isolates
Experiment: MIC against clinical isolates (resazurin reduction method)
Assay type: cell-based

Compound | activity against multidrug-resistant (MDR) and extensively drug-resistant (XDR) clinical isolates
O=C(NCCOCc1ccccc1)c1cc([N+](=O)[O-])cc([N+](=O)[O-])c1 [Compound 7, N-(2-(benzyloxy)ethyl)-3,5-dinitrobenzamide] | highly active
COc1ccc(OCCNC(=O)c2cc([N+](=O)[O-])cc([N+](=O)[O-])c2)cc1 [Compound 8, N-(2-(4-methoxyphenoxy)ethyl)-3,5-dinitrobenzamide] | highly active
